Measured values as given in article PMC8324912.

Experiments:
[1] = tested on: ArcA (Vibrio cholerae E12382); test: EMSA; details: 30 mM acetyl phosphate when necessary; recombinant protein; residues 1-239; protein details: 6xHis (pET28a); probe letters rebuilt from the primers and the genome
[2] = tested on: FruI (LacI-type regulator) (Vibrio cholerae E12382); test: EMSA; details: recombinant protein, residues 1-343, protein details: 6xHis (pET28a), probe letters rebuilt from the primers and the genome

Row | Sequence | binding result [1] | binding result ([2]; 0-10 mM fructose, binding not inhibited) | binding result ([2]; 0-10 mM fructose-1-phosphate, binding not inhibited) | binding result ([2]; 0-10 mM fructose-6-phosphate, binding not inhibited) | binding result ([2]; no effector)
1 | GAGCTGTTTATTTTGGGTATAACCCAAAATAATAAGCGAATAACCGTTTACCGCTCTAAATTATGTGACGTTGTGTTAATTGAATTGATGACTACGTAACTATTTATGCTAGGCTGTAGTCGGTTCTAATGACTGATAAATCACGAGTTATGCATTCTGAAAAAGCCACCGTCACCTCCAAAGATGTTGCCAAGTTAGCTGGGGTTTCTCAATCTACCGTATCACGCGTTTTTGTACCGGGTAGCTCGGTATCTG (double strand) [fruI promoter (EMSA fragment)] | binds |  |  |  | 
2 | GTAACCAACCAAGATCGCCAGATAGGCGGCTACTCTTTGAATCATAGGAACTTCGCTCATGTGTTTTTTGGTGGTCATGACCGATAAACCTCTGTTTTAAATTGATTTAAATATAATTCAACAGTGTGATTGAGACAGTTTCTCCATCTTTTTCAACCTTTACTTCGCGAAGAAGAATAGATTTATTTCGCGATAATGATCCGTGATCA (double strand) [fruT promoter (EMSA fragment)] |  | binds | binds | binds | binds

Construct, isoform or probe ends are uncertain for at least one entry.
